Measured values from several laboratories, pooled; numbers as filed in NIAID ChemDB.

All rows: whole-cell or culture tests; agent: HIV-1; measure: EC50

Blank or dashed fields: not listed here. ECn: concentration that inhibits the pathogen or its effect by n%. Two numbers with a dash give a range or band. Lines come from different laboratories, so protocols vary.

compound,method,mutations,strain,cell line,result
CC=CCn1c(-c2ccccc2F)nc2c(OC)cccc21,-,-,IIIB,MT-4,0.02 µg/mL
COc1c(C(=O)/C=C(/C)Nc2ccccc2)c(O)c(S(=O)(=O)Oc2ccc(F)cc2)c2occc12,cytopathic effect / MTS,-,RF,CEM-SS,0.000063 µM
Cc1ccc(-c2ccc3c(c2)C=C(C(=O)Nc2ccc(C[N+](C)(C)C4CCOCC4)cc2)CCC3)cc1,p24,-,Du422 CLADE C,PBMC,<1 µM
COc1cnc(-n2cnc(C)n2)c2[nH]cc(C(=O)C(=O)N3CCN(C(=N)c4ccccn4)CC3)c12,luciferase,-,Luciferase reporter virus,HeLa(CD4+) + HeLa,<0.5 µM
C[C@@H]1CCO[C@H]2Cn3cc(C(=O)NCc4ccc(F)cc4F)c(=O)c(O)c3C(=O)N12,luminescence,-,NL4-3,MT-4,0.0026 µM
Cc1cc(S(N)(=O)=O)ccc1NC(=O)COc1ccc(Cl)cc1C(=O)c1cc(F)cc(C(F)(F)F)c1,β-galactosidase,RT-P236L,HXB2,HeLa + HELA CD4+,<0.01 µM
Cc1occc1C(=O)Nc1ccc(Cl)c(/C=N/N2CCCC2)c1,syncytia,RT-Y188L,HEPT-resistant (RT Y188L),CEM,<2 µg/mL
COc1cccc2c1nc(-c1ccccc1F)n2Cc1cccs1,-,-,IIIB,MT-4,0.011 µg/mL
COC(=O)C(c1cc(C)ccc1C)S(=O)(=O)c1cccc[n+]1[O-],syncytia,-,IIIB,CEM,2.2 µg/mL
COc1c(-c2cc(C)n(C)n2)c(O)c(S(=O)(=O)OC2CCCCC2)c2occc12,MTT,-,IIIB,MT-4,0.000023 µM
CCc1cc(C#N)cc(C(=O)c2cc(Cl)ccc2OCC(=O)Nc2ccc(S(N)(=O)=O)cc2C)c1,β-galactosidase,RT-P225H,HXB2,HeLa + HELA CD4+,<0.01 µM
COc1c(-c2cc(C)[nH]n2)c(O)c(S(=O)(=O)OC2CCCC2)c2occc12,MTT,-,IIIB,MT-4,0.000025 µM
CN(C)S(=O)(=O)/N=C(\c1ccccc1)N1CCN(C(=O)C(=O)c2c[nH]c3ccccc23)CC1,luciferase,-,Luciferase reporter virus,HeLa(CD4+) + HeLa,<0.5 µM
Cc1c(Cl)ccc(C(C)S(=O)c2cccc[n+]2[O-])c1Cl,syncytia,-,IIIB,CEM,>0.16 µg/mL
COc1ccc(OS(=O)(=O)c2c3occc3c(OC)c3c(=O)cc(C)oc23)cc1,MTT,-,IIIB,MT-4,0.000048 µM
Cc1cc(OCCCN2CCOCC2)ccc1NC(=O)COc1ccc(Cl)cc1C(=O)c1cccs1,cytopathic effect / propidium iodide,-,IIIB,MT-4,0.011–0.1 µM
COc1c(-c2cc(C)[nH]n2)c(O)c(S(=O)(=O)Oc2ccc([N+](=O)[O-])cc2)c2occc12,cytopathic effect / MTS,-,RF,CEM-SS,0.000038 µM
COc1ncc(OC)c2c(C(=O)C(=O)N3CCN(C(=O)c4ccccc4)CC3)c[nH]c12,RT activity,-,NL4-3,MT-2,0.0174 µM
N=C1Sc2ccccc2C2=NCCCN12,β-galactosidase,-,98IN022,PBMC,0.4 µM
Cc1cc(S(N)(=O)=O)ccc1NC(=O)COc1ccc(Cl)cc1C(=O)c1cccc(C#N)c1,β-galactosidase,RT-K101E,HXB2,HeLa + HELA CD4+,<0.01 µM
Cc1ccc(C)c(C(C)S(=O)c2cccc[n+]2[O-])c1,syncytia,-,IIIB,CEM,>0.8 µg/mL
COc1cnc(-n2ccc(-c3ccc(C#N)cc3)n2)c2[nH]cc(C(=O)C(=O)N3CCN(C(=NC#N)c4ccccc4)CC3)c12,luciferase,-,Luciferase reporter virus,HeLa(CD4+) + HeLa,<0.5 µM
Cc1cc(C#N)cc(C(=O)c2cc(Cl)ccc2OCC(=O)Nc2ccc(S(N)(=O)=O)nc2C)c1,β-galactosidase,RT-K103N V108I,HXB2,HeLa + HELA CD4+,<0.01 µM
COc1cccnc1SCc1cc(C)ccc1C,syncytia,-,IIIB,CEM,1.7 µg/mL
C[C@H]1CN(C(=NC#N)c2ccccc2)CCN1C(=O)C(=O)c1c[nH]c2c(-c3nccs3)ccc(F)c12,luciferase,-,Luciferase reporter virus,HeLa(CD4+) + HeLa,<0.5 µM
COc1ccc(CS(=O)(=O)c2cccc[n+]2[O-])cc1,syncytia,-,IIIB,CEM,≥20 µg/mL
CC(C)CN(C[C@@H](O)[C@H](Cc1ccccc1)NC(=O)O[C@H]1CO[C@H]2OCC[C@H]21)S(=O)(=O)c1ccc2c(c1)OCO2,p24,-,MDR/TM,PHA-PBM,0.0032 µM
Cc1cn([C@H]2C[C@H](N=[N+]=[N-])[C@@H](CO)O2)c(=O)[nH]c1=O,p24 / ELISA,-,NL4-3,PBMC,0.05576 µM
COC(=O)Cn1c(-c2ccccc2F)nc2c(OC)cccc21,-,-,IIIB,MT-4,2.29 µg/mL
COc1c(C(=O)/C=C(/C)Nc2ccc(Cl)cc2)c(O)c(S(=O)(=O)OC2CCCCC2)c2occc12,cytopathic effect / MTS,-,RF,CEM-SS,0.000068 µM
COc1cc(CS(=O)c2cccc[n+]2[O-])cc(OC)c1OC,syncytia,-,IIIB,CEM,>20 µg/mL
COc1cccc2c1nc(-c1ccccc1F)n2Cc1cccc(F)c1,-,-,IIIB,MT-4,0.0048 µg/mL
O=[N+]([O-])c1ccc(O)c(CSc2cccc[n+]2[O-])c1,syncytia,-,IIIB,CEM,10 µg/mL
Cc1cc2cn[nH]c2cc1NC(=O)COc1ccc(Cl)cc1C(=O)c1cccc(C#N)c1,β-galactosidase,RT-K101E,HXB2,HeLa + HELA CD4+,<0.01 µM
COc1cnc(-c2cnccn2)c2[nH]cc(C(=O)C(=O)N3CCN(C(=N)c4ccccc4)C[C@@H]3C)c12,luciferase,-,Luciferase reporter virus,HeLa(CD4+) + HeLa,<0.5 µM
COc1cccc2c1nc(-c1ccccc1F)n2Cc1cc(F)cc(F)c1,-,-,IIIB,MT-4,0.0083 µg/mL
COc1c(C(=O)/C=C(/C)Nc2ccc([N+](=O)[O-])cc2)c(O)c(S(=O)(=O)Oc2ccc([N+](=O)[O-])cc2)c2occc12,cytopathic effect / MTS,-,RF,CEM-SS,0.000064 µM
Cc1ccc(C)c(C(C)(Cl)S(=O)(=O)c2cccc[n+]2[O-])c1,syncytia,-,IIIB,CEM,>4 µg/mL
CN=C(c1ccccc1)N1CCN(C(=O)C(=O)c2c[nH]c3c(-n4cnc(C)n4)ncc(OC)c23)CC1,luciferase,-,Luciferase reporter virus,HeLa(CD4+) + HeLa,<0.5 µM
Cc1cc(S(N)(=O)=O)ccc1NC(=O)COc1ccc(Cl)cc1C(=O)c1cc(Cl)cc(C#N)c1,β-galactosidase,RT-V106I Y181C,HXB2,HeLa + HELA CD4+,0.011–0.1 µM
C[C@@H]1CN(C(=NC#N)c2ccccc2)CCN1C(=O)C(=O)c1c[nH]c2c(-n3ccnn3)ncc(F)c12,luciferase,-,Luciferase reporter virus,HeLa(CD4+) + HeLa,<0.5 µM
O=C(COc1ccc(Cl)cc1C(=O)c1nccs1)Nc1ccccc1,cytopathic effect / propidium iodide,-,IIIB,MT-4,0.101–1 µM
Cc1ccc(C)c(CSc2ccc(Cl)c[n+]2[O-])c1,syncytia,-,IIIB,CEM,>100 µg/mL
COc1c(-c2cc(C)on2)c(O)c(S(=O)(=O)OC2CCCCC2)c2occc12,MTT,-,IIIB,MT-4,0.000034 µM
Cc1cc2[nH]cnc2cc1NC(=O)COc1ccc(Cl)cc1C(=O)c1cc(F)cc(C(F)(F)F)c1,β-galactosidase,RT-V108I Y181C,HXB2,HeLa + HELA CD4+,<0.01 µM
CCC(c1cc(C)ccc1C)S(=O)(=O)c1cccc[n+]1[O-],syncytia,-,IIIB,CEM,>20 µg/mL
COc1c(-c2cc(C)on2)c(O)c(S(=O)(=O)OC2CCCC2)c2occc12,cytopathic effect / MTS,-,RF,CEM-SS,0.000055 µM